{"source": "PubChem BioAssay AID1259414 (Drosophila RNAi Screening Center, 2018)", "aim": "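Host factors increasing or decreasing Wolbachia levels in cultured fly cells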 (primary screen)", "cells": "Drosophila JW18 cells infected with Wolbachia", "reagent": "long dsRNA against Drosophila genes, 0.25 µg dsRNA per well of a 384-well plate", "time to read-out": "5 days", "conditions": "cells persistently infected with Wolbachia before knock-down; no added drug", "measurement": "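Imaged fluorescence in situ signal for Wolbachia 23S rRNA per DAPI-counted host cell, given as a robust z-score within each plate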", "direction": "Wolbachia per cell robust z: higher = more Wolbachia per host cell than the plate typical", "hit rule": "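Active if absolute robust z reaches 1.5 in two or more of three replicates, leaving out multi- or no-target dsRNAs, genes unexpressed in JW18 and A1 wells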", "note": "In all, the deposit lists about 24,000 reagents; below is an unselected part of those that have a named target and a result. Over the whole deposit, about 1,210 (5%) were called active. 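Inactive calls also include excluded dsRNAs with several or no targets, genes unexpressed in JW18, and well A1, regardless of score.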 A number with no mark means an inactive call. Names joined by + are all predicted targets of the reagent."}
{"predicted target": "CG30160 + Tsp42Eb", "DRSC id": "DRSC06791", "Wolbachia per cell robust z, rep 1": -0.332, "Wolbachia per cell robust z, rep 2": 0.438, "Wolbachia per cell robust z, rep 3": 0.0662}
{"predicted target": "E(spl)m5-HLH", "DRSC id": "DRSC16695", "Wolbachia per cell robust z, rep 1": -2.83, "Wolbachia per cell robust z, rep 2": 0.525, "Wolbachia per cell robust z, rep 3": 0.000811}
{"predicted target": "E(spl)m5-HLH", "DRSC id": "DRSC28232", "Wolbachia per cell robust z, rep 1": 0.776, "Wolbachia per cell robust z, rep 2": 0.521, "Wolbachia per cell robust z, rep 3": 0.192}
{"predicted target": "Pkn", "DRSC id": "DRSC06810", "Wolbachia per cell robust z, rep 1": -1.06, "Wolbachia per cell robust z, rep 2": 0.06, "Wolbachia per cell robust z, rep 3": 0.0693}
{"predicted target": "Pkn", "DRSC id": "DRSC25936", "Wolbachia per cell robust z, rep 1": 1.07, "Wolbachia per cell robust z, rep 2": 1.5, "Wolbachia per cell robust z, rep 3": 0.277}
{"predicted target": "CG13907", "DRSC id": "DRSC08377", "Wolbachia per cell robust z, rep 1": -0.0573, "Wolbachia per cell robust z, rep 2": -0.448, "Wolbachia per cell robust z, rep 3": -0.061}
{"predicted target": "CG13907", "DRSC id": "DRSC25983", "Wolbachia per cell robust z, rep 1": 0.197, "Wolbachia per cell robust z, rep 2": 0.504, "Wolbachia per cell robust z, rep 3": -0.917}
{"predicted target": "CCHa2", "DRSC id": "DRSC14835", "Wolbachia per cell robust z, rep 1": 0.351, "Wolbachia per cell robust z, rep 2": 0.138, "Wolbachia per cell robust z, rep 3": 0.0758}
{"predicted target": "CG30159", "DRSC id": "DRSC04981", "Wolbachia per cell robust z, rep 1": -2.63, "Wolbachia per cell robust z, rep 2": -0.555, "Wolbachia per cell robust z, rep 3": -1.37}
{"predicted target": "CG30159", "DRSC id": "DRSC26683", "Wolbachia per cell robust z, rep 1": 0.706, "Wolbachia per cell robust z, rep 2": -0.332, "Wolbachia per cell robust z, rep 3": -0.424}
{"predicted target": "ZnT33D", "DRSC id": "DRSC02591", "Wolbachia per cell robust z, rep 1": 1.8, "Wolbachia per cell robust z, rep 2": 0.0528, "Wolbachia per cell robust z, rep 3": 0.724}
{"predicted target": "Prosbeta2", "DRSC id": "DRSC11257", "Wolbachia per cell robust z, rep 1": "1.81 (active)", "Wolbachia per cell robust z, rep 2": -0.699, "Wolbachia per cell robust z, rep 3": 1.87}

Targets above whose gene name begins with E or e (2):
{"predicted target": "E(spl)m5-HLH", "DRSC id": "DRSC16695", "Wolbachia per cell robust z, rep 1": -2.83, "Wolbachia per cell robust z, rep 2": 0.525, "Wolbachia per cell robust z, rep 3": 0.000811}
{"predicted target": "E(spl)m5-HLH", "DRSC id": "DRSC28232", "Wolbachia per cell robust z, rep 1": 0.776, "Wolbachia per cell robust z, rep 2": 0.521, "Wolbachia per cell robust z, rep 3": 0.192}
